# Assay results: US5001048A (priority 1987, dated 1991)
# Key:
# [1] = tested on: immobilized acetylcholine receptor (AChR); experiment: AChR sensor alternating current impedance response to agent challenge; assay type: binding, Electrophorus electricus; details: for AChR sensor response: 50 to 100 uL
# [2] = Control sensor (same formulation, no AChR added) impedance response to agent challenge; details: 50 to 100 uL
substance,measurement,setting,value
alpha-bungarotoxin,% Change of AChR sensor with respect to control,[1]; agent 5 ug/ml,0%
same,AChR sensor response,[1]; agent 5 ug/ml,42 K.OMEGA.
same,% Change of AChR sensor with respect to control,[1]; agent 50 ug/ml,48%
same,AChR sensor response,[1]; agent 50 ug/ml,34 K.OMEGA.
same,% Change of AChR sensor with respect to control,[1]; agent 500 ug/ml,108%
same,AChR sensor response,[1]; agent 500 ug/ml,27 K.OMEGA.
same,Control sensor response,[2]; agent 5 ug/ml,42 K.OMEGA.
same,Control sensor response,[2]; agent 50 ug/ml,23 K.OMEGA.
same,Control sensor response,[2]; agent 500 ug/ml,13 K.OMEGA.
